Assay results reported in patent publication US5527894.

Target: HIV-1 tat protein (Human immunodeficiency virus 1) (UniProt P04608)
Test: binding assay
Settings: CITED natural tat-TAR interaction; purified recombinant protein; protein details: purchased from American Bio-Technologies, Inc.

CCAGAUCUGAGCCUGGGAGCUCUCUGG [TAR RNA]: binds.

The exact form of at least one protein or probe is not confirmed.
